{"source": "PubChem BioAssay AID504761 (Drosophila RNAi Screening Center, 2011)", "test": "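Insect host genes that dengue virus relies on to spread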 (primary screen)", "system": "D.Mel-2 cells from Drosophila", "reagent": "long dsRNA against Drosophila genes", "treatment": "infection with dengue virus type 2; dose and infection time not stated", "read-out": "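Per well on two replicate plates, imaging gave the percent of cells positive for viral envelope protein, ranked by infection, and a nuclear count of cells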", "reading the numbers": "infection score: higher = more virus-infected cells; cell count: higher = more cells in the well", "rule for the call": "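Very low infection ranking in both replicate wells (chance probability at most 0.065), then a retest showing infection dropped 1.5-fold or more at p below 0.05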", "meaning of the calls": "active = confirmed: knock-down lowers infection; inactive = not picked or not confirmed", "note": "In all, the deposit lists about 22,000 reagents; below is a random part of those with a known target gene and a result. Of all reagents, 116 (0.52%) are marked active. 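Calls depend on retest data that are not deposited; infection was ranked per plate without normalising between plates; the unit of the infection score is not given.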 The raw values are shown without normalisation. Reagents against one gene are numbered here. No sequences are given here. Not given: the amount of reagent, the time to read-out."}
The first 2 entries, ahead of the listing:
{"target gene":"CG13561","reagent":1,"infection score, replicate 1":18.9,"infection score, replicate 2":8.87,"cell count, replicate 1":6685,"cell count, replicate 2":7005,"call":"inactive"}
{"target gene":"Tsp42Ep","reagent":1,"infection score, replicate 1":28.6,"infection score, replicate 2":15.4,"cell count, replicate 1":6000,"cell count, replicate 2":6853,"call":"inactive"}

The list itself, from the first entry:
{"target gene":"CG13561","reagent":1,"infection score, replicate 1":18.9,"infection score, replicate 2":8.87,"cell count, replicate 1":6685,"cell count, replicate 2":7005,"call":"inactive"}
{"target gene":"Tsp42Ep","reagent":1,"infection score, replicate 1":28.6,"infection score, replicate 2":15.4,"cell count, replicate 1":6000,"cell count, replicate 2":6853,"call":"inactive"}
{"target gene":"CG14757","reagent":1,"infection score, replicate 2":10.1,"cell count, replicate 1":492,"cell count, replicate 2":6401,"call":"inactive"}
{"target gene":"CG14757","reagent":2,"infection score, replicate 1":8.2,"infection score, replicate 2":10.6,"cell count, replicate 1":4868,"cell count, replicate 2":4851,"call":"inactive"}
{"target gene":"flw","reagent":1,"infection score, replicate 1":9.58,"infection score, replicate 2":5.11,"cell count, replicate 1":4790,"cell count, replicate 2":1448,"call":"inactive"}
{"target gene":"flw","reagent":2,"infection score, replicate 1":7.28,"infection score, replicate 2":28.3,"cell count, replicate 1":6166,"cell count, replicate 2":5831,"call":"inactive"}
{"target gene":"flw","reagent":3,"infection score, replicate 1":2.05,"infection score, replicate 2":6.67,"cell count, replicate 1":5991,"cell count, replicate 2":5903,"call":"inactive"}
{"target gene":"CG13318","reagent":1,"infection score, replicate 1":0.29,"infection score, replicate 2":5.1,"cell count, replicate 1":6287,"cell count, replicate 2":6409,"call":"inactive"}
{"target gene":"CG18568","reagent":1,"infection score, replicate 1":6.13,"infection score, replicate 2":11.8,"cell count, replicate 1":5642,"cell count, replicate 2":6142,"call":"inactive"}
{"target gene":"CG18568","reagent":2,"infection score, replicate 1":5.24,"infection score, replicate 2":2.95,"cell count, replicate 1":6941,"cell count, replicate 2":6853,"call":"inactive"}
{"target gene":"4E-T","reagent":1,"infection score, replicate 1":2.54,"infection score, replicate 2":8.86,"cell count, replicate 1":6146,"cell count, replicate 2":6433,"call":"inactive"}
{"target gene":"4E-T","reagent":2,"infection score, replicate 1":8.38,"infection score, replicate 2":1.61,"cell count, replicate 1":5025,"cell count, replicate 2":6705,"call":"inactive"}
{"target gene":"Trmt112","reagent":1,"infection score, replicate 1":5.58,"infection score, replicate 2":3.77,"cell count, replicate 1":6609,"cell count, replicate 2":6571,"call":"inactive"}
{"target gene":"LpR1","reagent":1,"infection score, replicate 1":3.62,"infection score, replicate 2":10.1,"cell count, replicate 1":7076,"cell count, replicate 2":6653,"call":"inactive"}
{"target gene":"LpR1","reagent":2,"infection score, replicate 1":3.46,"infection score, replicate 2":4.14,"cell count, replicate 1":5989,"cell count, replicate 2":5773,"call":"inactive"}
{"target gene":"LpR1","reagent":3,"infection score, replicate 1":0.73,"infection score, replicate 2":3.51,"cell count, replicate 1":6261,"cell count, replicate 2":6259,"call":"inactive"}
{"target gene":"LpR1","reagent":4,"infection score, replicate 1":11.8,"infection score, replicate 2":21.3,"cell count, replicate 1":3999,"cell count, replicate 2":5466,"call":"inactive"}
